Results deposited as PubChem BioAssay AID1259414 (Drosophila RNAi Screening Center, 2018)
The screen tested about 24,000 reagents; shown is an unselected part of those with a known target gene and a result. Over the whole deposit, about 1,210 (5%) got an active call. 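Inactive calls also include excluded dsRNAs with several or no targets, genes unexpressed in JW18, and well A1, regardless of score.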 A number with no mark means an inactive call. Names joined by + are all predicted targets of the reagent.

Purpose: 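Fly genes that alter Wolbachia amount inside host cells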 (primary screen)
System: Drosophila JW18 cells infected with Wolbachia
Reagents: long dsRNA against Drosophila genes, 0.25 µg dsRNA per well of a 384-well plate
Time to read-out: 5 days
Challenge: cells persistently infected with Wolbachia before knock-down; no added drug
Measured: 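Imaged fluorescence in situ signal for Wolbachia 23S rRNA per DAPI-counted host cell, given as a robust z-score within each plate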
Reading the numbers: Wolbachia per cell robust z: higher = more Wolbachia per host cell than the plate typical
Active means: 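Active if absolute robust z reaches 1.5 in two or more of three replicates, leaving out multi- or no-target dsRNAs, genes unexpressed in JW18 and A1 wells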

predicted target,amplicon,"Wolbachia per cell robust z, rep 1","Wolbachia per cell robust z, rep 2","Wolbachia per cell robust z, rep 3"
ko,DRSC11893,-0.275,-0.31,0.444
ko,DRSC26598,0.532,0.431,-0.515
M7BP,DRSC05053,-1.24,-0.163,-2.8
M7BP,DRSC05054,-1.82 (active),-1.64,-1.14
M7BP,DRSC05932,0.348,-0.767,-0.327
M7BP,DRSC06701,0.57,-0.0036,0.857
M7BP,DRSC06816,1.56,-5.99,1.44
M7BP,DRSC26905,0.174,-1.18,-1.68
CG12640,DRSC17847,0.165,-0.0253,-1.17
CG12640,DRSC26324,-1.21,0.316,0.106
CG11815,DRSC08209,-0.271,-0.983,-0.717
CG11815,DRSC27752,0.563,0.491,-0.872
CG15254,DRSC01870,1.04,0.0457,0.163
CG15254,DRSC21765,-0.172,-0.524,0.714
CG15254,DRSC29568,0.874,0.455,0.918
CG42521,DRSC10154,-4.14,-1.34,-1.11
Sms,DRSC10408,0.361,-0.589,-0.503
Tango1,DRSC02127,1.11,0.317,0.899
Tango1,DRSC27972,-0.235,-0.21,-0.0328
ppl,DRSC11899,0.383,0.341,0.123
ppl,DRSC27839,-0.286,-1.49,-0.815
btv,DRSC01615,-1.5,0.875,-0.13
btv,DRSC02449,-0.931,-1.4,-2.02
CG2021,DRSC08546,-0.149,-0.105,0.503
CG2021,DRSC27282,-1.28,-0.369,-1.06
Tim9b + Pstk + CG14210,DRSC29021,0.347,0.793,0.675
CR12628 + Mgstl,DRSC20568,0.754,0.349,-0.0112
uncNacbeta,DRSC00326,0.139,-1.07,-1.28
CG4020,DRSC18337,-0.916,0.278,1.02
CG44247 + Atf-2,DRSC04130,0.851,-7.48,-0.657
CG44247 + Atf-2,DRSC04413,-1.33,0.00291,-0.761
Rb97D,DRSC16815,0.804,0.9,0.304
Rb97D,DRSC25278,-1.08,-0.799,0.265
CG18213,DRSC15316,0.225,-0.379,-0.02
Spn43Ab,DRSC06781,-0.315,-2.77,0.123
Spn43Ab,DRSC28317,-1.15,-1.32,-0.642
ry,DRSC17048,0.72,0.761,-0.151
ry,DRSC27399,-0.238,-5.09,-0.815
CG31820,DRSC21318,1.26,1.03,1.02
CG31820,DRSC29683,-5.71,-3.67,-5.69
CG4294,DRSC04460,0.89,0.592,0.531
Ugt49C1,DRSC04252,0.832,0.895,0.522
Ugt49C1,DRSC27301,-0.176,-0.938,-0.0737
CG42782,DRSC41361,-0.87,-3.08,-0.39
CG32793,DRSC18145,-3.99,0.133,-0.339
CG32793,DRSC18194,-0.574,0.406,-1.06
CG32793,DRSC28737,0.263,0.0892,-1.41
Tret1-1,DRSC07046,-1.1,-2.65,-1.05
Tret1-1,DRSC07048,0.273,0.512,0.235
Tret1-1,DRSC25701,1.05,0.721,-0.653
Sf3a1,DRSC15166,0.586,1.31,3.32
CG14715,DRSC14938,1.04,0.36,-5.14
CG1532,DRSC20516,0.583,0.766,-0.0843
CG10993,DRSC19362,-0.96,0.732,1.39
CG42688,DRSC41405,0.948,0.739,-0.312
CG32795,DRSC18609,-2.76 (active),-0.0673,-2.86
CG32795,DRSC18610,0.383,0.221,0.46
Zpr1,DRSC18432,0.673,0.727,-0.202
CG31406,DRSC12777,1.03,0.569,0.394
CG31406,DRSC26169,-0.323,-0.466,-0.814
CG7789,DRSC16312,-0.376,-0.12,-0.445
CG7789,DRSC41623,-2.96,-1.06,-1.28
scny,DRSC10509,0.599,0.323,0.204
scny,DRSC23229,0.905,1.44,0.787
scny,DRSC27520,-0.593,0.259,0.809
Ak3,DRSC16075,0.24,0.205,0.716
Ak3,DRSC27968,-0.566,-1.39,0.75
CG7378,DRSC20041,1.55,0.531,0.404

A few values from the list.
Value for CG31406 [DRSC12777] under “Wolbachia per cell robust z, rep 3”: 0.394
Value for ko [DRSC11893] under “Wolbachia per cell robust z, rep 2”: -0.31
Value for CG32795 [DRSC18610] in “Wolbachia per cell robust z, rep 3”: 0.46
Value of M7BP [DRSC26905] in “Wolbachia per cell robust z, rep 3”: -1.68
Value of Spn43Ab [DRSC06781] in “Wolbachia per cell robust z, rep 2”: -2.77
For “Wolbachia per cell robust z, rep 1”, M7BP [DRSC05054] reads -1.82 (active)
